These results are taken from publication doi:10.1101/2023.09.24.559214.

Assay [1] deals with BA.2.86-V2 soluble spike protein (SARS-CoV-2). In words: SPR. For orientation: Surface plasmon resonance follows binding to a sensor surface in real time, without labels.
Assay [2] addresses XBB.1.5 soluble spike protein (SARS-CoV-2). The assay can be described thus: SPR.

As for “dimeric human-ACE2-Fc protein (from UniProt Q9BYF1) (Fc fusion)”, the Kd is 0.6 nM in assay [1] and 1.34 nM in assay [2].

By Kd is commonly meant the concentration at which binding is half-saturated.
